Reference: patent US8632914B2, “Triazolium and imidazolium salts and uses thereof” (University Health Network, priority 2008, dated 2014)

System: P. falciparum
Assay: Anti-Plasmodium activity: viability of P. falciparum cultures (pLDH enzyme assay)
Format: cell-based
Conditions: ratio of activities: IC50 for CHO cells divided by IC50 for P. falciparum cultures
Description: P. falciparum cultures were grown in O+ blood obtained by venipuncture of volunteers. Cultures of the laboratory line ItG were maintained by the method of Trager and Jensen (Trager, W.; Jensen, J. Science 1976, 193, 673) using RPM, 1640 supplemented with 10% human serum (a kind gift obtained under ethical consent from the Chemo Day Care department of the Princess Margaret Hospital, Toronto, Canada) and 50 μM hypoxanthine (RPMI-A). The effects of the test compounds on the viability of P. falciparum cultures were determined using a Lactate Dehydrogenase (LDH) enzyme assay specific to the enzyme found in Plasmodium falciparum (pLDH) (Prudhomme, J. G.; Sherman, I. W. J Immunol Methods 1999, 229(1-2), 169; Makler, M. T.; Ries, J. M.; Williams, J. A.; Bancroft, J. E.; Piper, R. C.; Gibbins, B. L.; Hinrichs, D. J. Am J Trop Med Hyg 1993, 48(6), 739). Briefly, compounds to be tested were dissolved in DMSO afford a solution having a concentration of 10 mg/mL. Two-fold serial dilutions were then produced in 50 μL of RPMI-A in a 96 well plate and then 50 μL of parasite culture (2% hematocrit, 2% parasitemia) were added to each well and the plates were then incubated at 37° C. in 95% N2, 3% CO2, and 2% O2 for 72 hr. The contents of the wells were then re-suspended using a multi-channel pipettor and a 15 μL sample was removed from each well and was added to 100 μL of pLDH enzyme assay mixture (Prudhomme, J. G.; Sherman, I. W. J Immunol Methods 1999, 229(1-2), 169). After 1 hr the absorbance of the wells at 650 nm was determined using a ThermoMax microplate reader (Molecular Devices, Sunnyvale, Calif.). The IC50 values of individual compounds were determined using a non-linear regression analysis of the data^19 using the computer program SigmaPlot (Jandel Scientific) and are reported in Table 1. The IC50 values represent the mean±standard error calculated from four independent determinations. To verify if the poor viability of the cultures was related to inhibited merozoite invasion, samples were taken from treated wells and the presence of extracellular merozoites was confirmed by microscopy.

| SMILES | IC50 CHO/IC50 P. falciparum |
| --- | --- |
| c1ccc(Cn2cc[n+](Cc3ccccc3)c2)cc1 [QT68, 1,3-Dibenzylimidazolium bromide] | 11.9 |
| c1ccc(Cn2cc[n+](Cc3ccc4ccccc4c3)c2)cc1 [QT69, 1-Benzyl-3-(naphthalen-2-yl-methyl)imidazolium bromide] | 120.0 |
| Cn1cc[n+](C)c1 [QT70, 1,3-Dimethylimidazolium iodide] | 1.6 |
| C[n+]1ccn(CCCCCCCCn2cc[n+](C)c2)c1 [QT71, 1,8-Bis-(3-methylimidazolium-1-yl)octane diiodide] | 96.2 |
| CCCn1cc[n+](C)c1 [QT73, 3-Methyl-1-propylimidazolium bromide] | 4.3 |
| Clc1cccc(Cn2cc[n+](Cc3cccc(Cl)c3)c2)c1 [QT74, 1,3-Bis-(3-chlorobenzyl)imidazolium bromide] | 101.3 |
| Brc1ccc(C[n+]2ccn(Cc3ccccc3)c2)cc1 [QT75, 1-Benzyl-3-(4-bromobenzyl)imidazolium bromide] | 167.1 |
| Ic1ccc(Cn2cc[n+](Cc3ccc(I)cc3)c2)cc1 [QT78, 1,3-Bis-(4-iodobenzyl)imidazolium bromide] | 94.3 |
| COc1ccc(Cn2cc[n+](Cc3ccc(OC)cc3)c2)cc1 [QT79, 1,3-Bis-(4-methoxybenzyl)imidazolium chloride] | 6.1 |
| Clc1ccc(Cn2cc[n+](Cc3ccc(Cl)cc3)c2)cc1 [QT80, 1,3-Bis-(4-chlorobenzyl)imidazolium chloride] | 11.7 |
| c1ccc2cc(Cn3cc[n+](Cc4ccc5ccccc5c4)c3)ccc2c1 [QT81, 1,3-Bis-(naphthalen-2-yl-methyl)imidazolium bromide] | 30.0 |
| Brc1ccccc1Cn1cc[n+](Cc2ccccc2Br)c1 [QT82, 1,3-Bis-(2-bromobenzyl)imidazolium bromide] | 89.3 |
| Brc1cccc(Cn2cc[n+](Cc3cccc(Br)c3)c2)c1 [QT83, 1,3-Bis-(3-bromobenzyl)imidazolium bromide] | 125.7 |
| O=[N+]([O-])c1ccc(Cn2cc[n+](Cc3ccc([N+](=O)[O-])cc3)c2)cc1 [QT85, 1,3-Bis-(4-nitrobenzyl)imidazolium bromide] | 25.2 |
| C[n+]1ccn(CCCCn2cc[n+](C)c2)c1 [QT86, 1,4-Bis-(3-methylimidazolium-1-yl)butane diiodide] | 1.8 |
| C[n+]1ccn(CCCCCCn2cc[n+](C)c2)c1 [QT87, 1,6-Bis-(3-methylimidazolium-1-yl)hexane diiodide] | 56.2 |
| C[n+]1ccn(CCCCCCCCCCn2cc[n+](C)c2)c1 [QT88, 1,10-Bis-(3-methylimidazolium-1-yl)decane diiodide] | 695 |
| C[n+]1ccn(CCCCCCCCCCCCn2cc[n+](C)c2)c1 [QT89, 1,12-Bis-(3-methylimidazolium-1-yl)dodecane diiodide] | 2888.9 |
| Clc1ccccc1Cn1cc[n+](Cc2ccccc2Cl)c1 [QT90, 1,3-Bis-(2-chlorobenzyl)imidazolium bromide] | 55.0 |

| SMILES | IC50 CHO/IC50 P. falciparum |
| --- | --- |
| O=C(Cn1cc[n+](CC(=O)c2ccc(Cl)cc2)c1)c1ccc(Cl)cc1 [QT91, 1,3-Bis-[2-oxo-2-(4-chlorophenyl)ethyl]imidazolium bromide] | 20.4 |
| Fc1ccc(Cn2cc[n+](Cc3ccc(F)cc3)c2)cc1 [QT92, 1,3-Bis-(4-fluorobenzyl)imidazolium bromide] | 3.3 |
| Brc1ccc(Cn2cc[n+](Cc3ccc4ccccc4c3)c2)cc1 [QT95, 1-(4-Bromobenzyl)-3-(naphthalen-2-ylmethyl)imidazolium bromide] | 37.0 |
| O=C(Cn1cc[n+](CC(=O)c2ccc(Cc3ccccc3)cc2)c1)c1ccc(Cc2ccccc2)cc1 [QT97, 1,3-Bis-[2-oxo-2-(4-benzylphenyl)ethyl]imidazolium bromide] | 9 |
| C[n+]1ccn(-c2ccc(-c3ccc(-n4cc[n+](C)c4)cc3)cc2)c1 [QT98, 4,4′-Bis-(3-methyl-1H-imidazolium-1-yl)biphenyl diiodide] | 1000 |
| C[n+]1ccn(CCCCCCCCCCCCCCCn2cc[n+](C)c2)c1 [QT101, 1,15-Bis-(3-methylimidazolium-1-yl)pentadecane diiodide] | 600 |
| O=[N+]([O-])c1ccc(C[n+]2ccn(-c3ccc(-c4ccc(-n5cc[n+](Cc6ccc([N+](=O)[O-])cc6)c5)cc4)cc3)c2)cc1 [QT103, 4,4′-Bis-[3-(4-nitrobenzyl)-1H-imidazolium-1-yl]biphenyl dibromide] | 538 |
| Cn1c[n+](C)c(-c2ccccc2)c1-c1ccccc1 [QT104, 1,3-Dimethyl-4,5-diphenyl-1H-imidazolium iodide] | 124 |
| c1ccc(Cn2c[n+](Cc3ccccc3)c(-c3ccccc3)c2-c2ccccc2)cc1 [QT105, 1,3-dibenzyl-4,5-diphenyl-1H-imidazolium bromide] | 15 |
| C[n+]1ccn(CCCCCCCCCCCCCCn2cc[n+](C)c2)c1 [QT107, 1,14-Bis-(3-methylimidazolium-1-yl)tetradecane diiodide] | 3438 |
| C[n+]1ccn(CCCCCCCCCCCCCn2cc[n+](C)c2)c1 [QT109, 1,13-Bis-(3-methylimidazolium-1-yl)tridecane diiodide] | 7286 |
| C[n+]1cn(-c2ccc(-c3ccc(-n4c[n+](C)c5ccccc54)cc3)cc2)c2ccccc21 [QT110, 4,4′-Bis-(3-methylbenzimidazolium-1-yl)biphenyl diiodide] | 1400 |
| C[n+]1ccn(Cc2ccc(-c3ccc(Cn4cc[n+](C)c4)cc3)cc2)c1 [QT113, 4,4′-Bis-(3-methylimidazolium-1-yl-methyl)biphenyl diiodide] | 1042 |
| C[n+]1ccn(-c2ccc(-n3cc[n+](C)c3)cc2)c1 [QT114, 1,4-Bis-(3-methylimidazolium-1-yl)benzene diiodide] | 28.3 |
| C[n+]1ccn(CCCCCCCCCCCCCCCCCCCCn2cc[n+](C)c2)c1 [QT116, 1,20-Bis-(3-methylimidazolium-1-yl)eicosane diiodide] | 667 |
| C[n+]1ccn(CCCCCCCCCCCn2cc[n+](C)c2)c1 [QT118, 1,11-Bis-(3-methylimidazolium-1-yl)undecane diiodide] | 6885 |
| CCC[n+]1ccn(CCCCCCCCCCCCn2cc[n+](CCC)c2)c1 [QT119, 1,12-Bis(3-propylimidazolium-1-yl)dodecane diiodide] | 97500 |
| C[n+]1ccn(CCCOc2ccc(OCCCn3cc[n+](C)c3)cc2)c1 [QT123, 1,4-Bis[3-(3-methylimidazolium-1-yl)propoxy]benzene diiodide] | 2511 |
